Anti-infective test results gathered from many reports (values: NIAID ChemDB through PubChem).

Common to all: growth or infection tests; species: Mycobacterium tuberculosis

MIC bound comes from a single tested concentration.

structure	read by	measure	cells	dose	strain or isolate	value
CN1CCC(CN)(c2ccccc2)CC1.Cl		MIC			H37Rv	>100 µg/mL
O=C1c2ccccc2C(=O)c2c(N=Nc3ccc(O)c(S(=O)(=O)O)c3)cccc21	BACTEC	inhibition		12.5 µg/mL	H37Rv	3%
C/C(=C\C(=O)c1ccccc1)N1CCOCC1		MIC			H37Rv	100 µg/mL
O=C1C=CC(=NN=C(c2ccccc2)c2ccccc2)C=C1	BACTEC	inhibition		12.5 µg/mL	H37Rv	78%
O=C(c1cccs1)c1ccccc1I		MIC			H37Rv	50 µg/mL
NC[C@H]1O[C@H](O[C@H]2[C@H](O)[C@@H](O[C@H]3O[C@H](CO)[C@@H](O)[C@H](N)[C@H]3O)[C@H](N)C[C@@H]2N)[C@H](O)[C@@H](O)[C@@H]1O		MIC			TN3432 (W)	>256 µg/mL
O=C(O)C(O)(C1CCCCC1)C1CCCCC1		MIC			H37Rv	50 µg/mL
Cc1cc2oc(=O)c3c(c2c(O)c1CN1CCOCC1)CCCC3	BACTEC	MIC bound			H37Rv	>12.5 µg/mL
NCCCCc1cccnc1		MIC			H37Rv	400 µg/mL
COc1ccccc1CCNCCNCCC(c1ccccc1)c1ccccc1		MIC				12.5 µM
CCN1C(=O)c2ccccc2C1=O		MIC			H37Rv	>100 µg/mL
CC(Cc1ccc(Cl)cc1)NCCNC[C@]1(C)CCC[C@]2(C)c3ccc(C(C)C)cc3CC[C@@H]12		MIC				50 µM
CC(=O)c1ccc2sc3ccc(C(C)=O)cc3c2c1		MIC			H37Rv	>100 µg/mL
CC(C)=CCC/C(C)=C/CNCCNCc1cccc(C)c1		MIC				50 µM
CCC[CH2][Sn]1([CH2]CCC)[O]C(=O)CN=C(C)c2ccccc2[O]1		MIC			INH-r	6.3 µg/mL
CCCCC(CC)CN1CN(CC(CC)CCCC)CC(C)(NCCNC2CCC(C)CC2)C1		MIC				25 µM
Cc1ccc(NCC2(/N=C/c3ccccc3)OC(CO)C(O)C2O)cc1	BACTEC	inhibition		12.5 µg/mL	H37Rv	23%
CC1CC(=O)CC(=O)C1		MIC			H37Rv	>100 µg/mL
O=C(Nc1cnc2c(Cl)cc(NC(=O)OCc3ccccc3)nc2n1)OCc1ccccc1		inhibition		12.5 µg/mL	H37Rv	1%
Cc1nc(C(N)=O)c(C(N)=O)nc1C	BACTEC	inhibition		12.5 µg/mL	H37Rv	11%
CCCN(CCC)C(=O)OCC[N+](CC)(CC)CC.[I-]		MIC			H37Rv	50 µg/mL
CC(C)N=c1cc2n(-c3ccc(Cl)cc3)c3ccccc3nc-2cc1Nc1ccc(Cl)cc1	broth dilution / resazurin	MIC			MDR19	0.5 µg/mL
CCC(C)(C)NCCNCc1cccc(F)c1		MIC				50 µM
CCC(OC(=O)Nc1ccc(S(=O)(=O)NC2CCCCC2)cc1)c1ccco1	BACTEC	MIC bound			H37Rv	>12.5 µg/mL
COc1ccc(OC)c(CCNCCNCCCCCO)c1		MIC				12.5 µM
O=C(O)c1cccc2c1Oc1c(cccc1C(=O)O)S2	BACTEC	inhibition		12.5 µg/mL	H37Rv	15%
CC1(C)[C@@H]2CC[C@@]1(C)[C@@H](NCCNCC(c1ccccc1)c1ccccc1)C2		MIC				6.25 µM
CCCCC(Nc1cc(NC(=O)OCC)nc(N)c1[N+](=O)[O-])C(C)=O		EC50			H37Rv	<12.5 µg/mL
CCN(CC)CCNc1ccc(COC(=O)NC)c2sc3ccccc3c(=O)c12	BACTEC	MIC	VERO		H37Rv	6.25 µg/mL
CC(C)c1ccc2c(c1)CC[C@H]1[C@](C)(CNCCNCc3ccc(C(F)(F)F)cc3)CCC[C@]21C		MIC				25 µM
COc1ccc(CCn2nnc3ccccc3c2=O)cc1OC	BACTEC	inhibition		12.5 µg/mL	H37Rv	4%
CCOC(=O)Nc1cc(Nc2ccc(Cl)cc2)c2nc(-c3ccccc3)c(-c3ccccc3)nc2n1		EC50			H37Rv	>12.5 µg/mL
CCCCCCCCCCCNCCNCCF		MIC				25 µM
COc1cccc2c1C(=O)c1c(O)c3c(c(O)c1C2=O)C[C@@](O)(/C(C)=N/NC(=O)c1ccccc1)CC3O[C@H]1CC(N)C(O)C(C)O1	BACTEC	inhibition		12.5 µg/mL	H37Rv	6%
CC(=O)Nc1ccc(S(=O)(=O)C(CC(=O)c2ccccc2)c2ccccc2)cc1		MIC			H37Rv	>100 µg/mL
O=C(Nc1ccccc1-c1nn(C(=S)Nc2ccccc2)c(=S)n(C(=S)Nc2ccccc2)c1=O)C(F)(F)F	resazurin	MIC			H37Rv	>12.5 µg/mL
CCOC(=O)Nc1cc(NCCc2ccccc2)c([N+](=O)[O-])c(N)n1		EC50			H37Rv	<12.5 µg/mL
CC(C)c1ccc2c(c1)CC[C@H]1[C@](C)(CNCCNC3CCCC(C)C3C)CCC[C@]21C		MIC				25 µM
O=S(=O)(Nc1ccc(Cl)c(C(F)(F)F)c1)c1ccc(F)cc1	BACTEC	MIC bound			H37Rv	>12.5 µg/mL
Cc1cc(C)c(C(=O)C[n+]2ccccc2)cc1C.[Cl-]		MIC			H37Rv	50 µg/mL
CCCCCCCCCCCNCCNC1CCC1		MIC				50 µM
O=C1C2=C(Nc3cc([N+](=O)[O-])ccc3N2)OC1c1ccccn1	BACTEC	MIC bound			H37Rv	>12.5 µg/mL
O=C(O)CNc1ccccc1		MIC			H37Rv	>100 µg/mL
CO[C@@]12[C@H](COC(N)=O)C3=C(C(=O)C(C)=C(NC(C)C)C3=O)N1C[C@@H]1N[C@@H]12	BACTEC	inhibition		0.5 µM	H37Rv	61%
O=C(O)c1cccc(C(F)(F)F)c1		MIC			H37Rv	>100 µg/mL
CCCCC(CC)CN1CN(CC(CC)CCCC)CC(C)(NCCNCCF)C1		MIC				12.5 µM
CC1CC2C3CCC4=CC(=O)C=CC4(C)C3(F)C(O)CC2(C)C1(O)C(=O)COP(=O)(O)O	BACTEC	MIC bound			H37Rv	>6.25 µg/mL
COc1ccc(NC(=O)c2cc([N+](=O)[O-])ccc2Oc2ccccc2)cc1NC(=O)CC(=O)c1ccccc1OC		MIC			H37Rv	100 µg/mL
CO[C@H]1/C=C/O[C@@]2(C)Oc3c(C)c(O)c4c(=O)c(c5oc6cc(N7CCN(CC(C)C)CC7)cc(=O)c6nc5c4c3=C2O)NC(=O)/C(C)=C\C=C\[C@H](C)[C@H](O)[C@@H](C)[C@@H](O)[C@@H](C)[C@H](OC(C)=O)[C@@H]1C		MBC			33 (rifampin-resistant)	0.05 µg/mL
Nc1cc(S(=O)(=O)O)cc2cc(S(=O)(=O)O)cc(S(=O)(=O)O)c12		MIC			H37Rv	>100 µg/mL
CO[C@H]1/C=C/O[C@@]2(C)Oc3c(C)c(O)c4c(=O)c(c5oc6cc(N7CCN(C(C)C)CC7)cc(=O)c6nc5c4c3=C2O)NC(=O)/C(C)=C\C=C\[C@H](C)[C@H](O)[C@@H](C)[C@@H](O)[C@@H](C)[C@H](OC(C)=O)[C@@H]1C		MIC			2275 (rifampin-resistant)	0.4 µg/mL
COC(=O)c1cccc(N)c1		MIC			H37Rv	>100 µg/mL
S=C(S)NCCNC(=S)S	BACTEC	MIC			H37Rv	16 µg/mL
COc1cc(N)cc2c1NC(C)CC2.O=S(=O)(O)O		MIC			H37Rv	100 µg/mL
Cl.c1ccc2c(c1)Oc1ccccc1N2CCN1CCCCC1	BACTEC	inhibition		12.5 µg/mL	H37Rv	64%
NC(=O)c1ccccc1Cl		MIC			H37Rv	>100 µg/mL
COc1ccc(CCNCCNCC23CC4CC(CC(C4)C2)C3)cc1		MIC				25 µM
CCC(C)(C)c1ccc(Oc2ccc(C(=O)N=C3CC(=O)NN3c3ccccc3)cc2)cc1		MIC			H37Rv	>100 µg/mL
COC12CC3(C)C(C4=CC(=O)OC4)CCC3(O)C3CCC4=CC(=O)CCC4(CO1)C32	BACTEC	inhibition		12.5 µg/mL	H37Rv	-10%
O=C(Nc1ccccn1)c1ccccc1O		MIC			H37Rv	>100 µg/mL
CCOC(=O)Nc1cc(NC(c2ccccc2)c2ccccc2)c([N+](=O)[O-])c(NC/C(C)=N/NC(=O)O)n1		EC50			H37Rv	>12.5 µg/mL

A second listing of 6 rows from above:

structure,read by,measure,cells,dose,strain or isolate,value
CC(=O)c1ccc2sc3ccc(C(C)=O)cc3c2c1,,MIC,,,H37Rv,>100 µg/mL
Cc1cc(C)c(C(=O)C[n+]2ccccc2)cc1C.[Cl-],,MIC,,,H37Rv,50 µg/mL
C/C(=C\C(=O)c1ccccc1)N1CCOCC1,,MIC,,,H37Rv,100 µg/mL
O=S(=O)(Nc1ccc(Cl)c(C(F)(F)F)c1)c1ccc(F)cc1,BACTEC,MIC bound,,,H37Rv,>12.5 µg/mL
COC12CC3(C)C(C4=CC(=O)OC4)CCC3(O)C3CCC4=CC(=O)CCC4(CO1)C32,BACTEC,inhibition,,12.5 µg/mL,H37Rv,-10%
O=C(Nc1ccccc1-c1nn(C(=S)Nc2ccccc2)c(=S)n(C(=S)Nc2ccccc2)c1=O)C(F)(F)F,resazurin,MIC,,,H37Rv,>12.5 µg/mL

Percent inhibition refers to the dose given; in toxicity tests it is the harm to the cells. Rows are shuffled and stem from different studies. Blank or dashed fields: not listed here. ECn is the concentration giving n% inhibition of infection, replication or growth.